Compound potency records, mixed from different reports. Data source: NIAID ChemDB in PubChem.

All rows: cytotoxicity tests; endpoint: CC50

Lines come from different laboratories, so protocols vary. Blank or dashed fields: not listed here. CCn is the concentration with n% toxicity to the cells.

SMILES | cells | method | result
CCc1cccc(C)c1NS(=O)(=O)c1nc2nc(C)cc(C3CC3)n2n1 | K562 (CRL-1573) | WST | >128 µg/mL
COC(=O)N[C@H](C(=O)N[C@@H](C)CCC[C@@H](CO)N(C)S(=O)(=O)c1ccc(N)cc1)C(c1ccccc1)c1ccccc1 | T lymphoid cells | microscopy | >10 µM
Nc1nc(=O)n([C@@H]2O[C@H](CO)[C@@H](O)[C@@H]2F)cc1I | NIH 3T3 | cell count | 30 µM
CN[C@H](C(=O)N[C@H](CCC[C@@H](CO)N(CCC(C)C)S(=O)(=O)c1ccc(CO)cc1)C1CC1)C(c1ccccc1)c1ccccc1 | T lymphoid cells | microscopy | >10 µM
CCCO/N=C/c1ccc(OCCC2CCN(c3ccc(Cl)nn3)CC2)cc1 | MRC-5 | neutral red | >0.1 µg/mL
CCCCN(CCCC)c1ccc2c(c1)Cc1cc(NC(N)=S)ccc1-2 | Ava5-EG(delta4AB)SEAP | MTS | >1 µM
O=c1[nH]c(=O)n([C@H]2C[C@H](O)[C@@H](CO)O2)cc1I | NIH 3T3 | cell count | 7 µM
Nc1nc2c(ncn2COC(CO)CO)c(=O)[nH]1 | HEL fibroblasts |  | 134 µM
O=C1NNC(=O)c2c(ncn2[C@@H]2O[C@H](CO)[C@@H](O)[C@H]2O)N1 | Daudi dividing cells |  | >50 µM
OC[C@H]1O[C@@H](n2ccc3c(-c4cc5ccccc5o4)nc(Cl)nc32)C(O)C1O | K562 leukemia cells | MTT | 11 µM
CC[C@H](C)[C@H]1OC(=O)[C@H](C(C)C)N(C)C(=O)[C@@H]([C@@H](C)CC)OC(=O)[C@H](C(C)C)N(C)C(=O)[C@@H]([C@@H](C)CC)OC(=O)[C@H](C(C)C)NC1=O | KB cells | absorbance | 1.05 µM
CC[C@@H](CCC[C@@H](CO)N(CCC(C)C)S(=O)(=O)c1ccc(N)c(Br)c1)NC(=O)[C@@H](NC(=O)OC)C(c1ccccc1)c1ccccc1 | T lymphoid cells | microscopy | >10 µM
O=C(NCc1ccc(Cl)cc1)c1c[nH]c2c(F)cccc2c1=O | 10T1/2 |  | 89 µM
CCOC(=O)COc1ccc(C(O)O)cc1 | BJ |  | >20 µM
NC(=S)Nc1ccc(OCCCCCOc2ccc(Cl)cc2Cl)cc1 | Ava5-EG(delta4AB)SEAP | MTS | >1 µM
COC(=O)N[C@@H](Cc1ccccc1Cl)C(=O)N[C@@H](C)CCC[C@@H](CN)N(CCC(C)C)S(=O)(=O)c1ccc(N)cc1 | T lymphoid cells | microscopy | >10 µM
CCO/N=C/c1ccc(OCCC2CCN(c3ccc(Cl)nn3)CC2)c(OC)c1 | MRC-5 | visual reading | >1 µg/mL
OC[C@H]1O[C@@H](n2ccc3c(-c4ccco4)nc(F)nc32)C(O)C1O | BJ fibroblasts | MTT | 30.59 µM
C[C@H]1O[C@@H](Oc2ccccc2)[C@H](O)[C@@H](O)[C@@H]1O | LLC-MK2 |  | 1000 µM
CCOC(=O)CCCCCOc1cccc(CN(C(=O)c2ccc(-c3ccsc3)cc2)C(C)C)c1 | HepG2 |  | >20 µM
CCC1(Cc2ccccc2)OS(=O)(=O)C=C1OCc1cccc(Cl)c1 | HEL fibroblasts |  | 50 µM
OC[C@H]1O[C@@H](Oc2ccccc2)[C@H](O)[C@@H](O)[C@@H]1O | LLC-MK2 |  | >1000 µM
CCCCn1c(=O)c2ccccc2c2cc(C(O)(C(F)(F)F)C(F)(F)F)c(OC)cc21 | Replicon cells | tetrazolium | >40 µM
CCOC(=O)c1cc(O)c(O)c(O)c1 | Col-2 | MTS | >200 µM
CCOC(=O)CCCCCOc1cccc(CN(C(=O)c2ccc(-c3cccc(C#N)c3)cc2)C(C)C)c1 | RAJI |  | >20 µM
Cc1nc(N)nc2c1ccn2[C@@H]1O[C@H](CO)C(O)C1O | CCRF-CEM leukemia cells | MTT | 26.5 µM
CCOC(=O)CCCCCOc1cccc(CN(C(=O)c2ccc(-c3ccoc3)cc2)C(C)C)c1 | HEK 293 |  | >20 µM
CCCCn1c(=O)c2ccccc2c2c(OC)c(C(O)(C(F)(F)F)C(F)(F)F)c3c(c21)OCO3 | Replicon cells | tetrazolium | 93.9 µM
CCC1(Cc2ccccc2)OS(=O)(=O)C=C1OCCCc1ccccc1 | HEL fibroblasts |  | 133 µM
COC(=O)NC(Cc1cccc(Cl)c1Cl)C(=O)N[C@@H](C)CCC[C@@H](CO)N(C(C)C)S(=O)(=O)c1ccc(CO)cc1 | T lymphoid cells | microscopy | >10 µM
N#Cc1cccc(OCCCCCOc2cccc(NC(N)=S)c2)c1 | Ava5-EG(delta4AB)SEAP | MTS | >1 µM
O[C@@H]1[C@@H](O)[C@H](Oc2ccc(Cl)cc2)O[C@H](CCl)[C@H]1O | LLC-MK2 |  | 150 µM
Nc1nc2c(ncn2COC(CO)CO)c(=O)[nH]1 | BCBL-1 | cell count | 239 µM
CCCCn1c(=O)c2ccccc2c2cc(C(O)(C(F)(F)F)C(F)(F)F)ccc21 | Replicon cells | tetrazolium | 15.8 µM
Cc1cc(C2CC2)n2nc(S(=O)(=O)Nc3c(C)ccc(Cl)c3C)nc2n1 | K562 (CRL-1573) | WST | 95 µg/mL
CCCCn1c(=O)c2ccccc2c2cc(C(O)(C(F)(F)F)C(F)(F)F)cc(C)c21 | Replicon cells | tetrazolium | 31.9 µM
OC[C@H]1O[C@@H](Oc2ccccc2)[C@H](O)[C@@H](O)[C@H]1Cl | LLC-MK2 |  | 1000 µM
COc1cc(F)cc(-c2ccc(C(=O)N(Cc3cccc(OCCCCCC(=O)OC(=O)O)c3)C(C)C)cc2)c1 | HEK 293 |  | >20 µM
CCO/N=C/c1cc(C)c(OCCC2CCN(c3ccc(Cl)nn3)CC2)c(C)c1 | MRC-5 | visual reading | >1 µg/mL
NC(=S)Nc1cccc(OCCCCCCCc2ccccc2)c1 | Ava5-EG(delta4AB)SEAP | MTS | >1 µM
CCCCn1c(=O)c2cc(OC)ccc2c2cc(C(O)(C(F)(F)F)C(F)(F)F)ccc21 | Replicon cells | tetrazolium | 9.6 µM
COC(=O)N[C@H](C(=O)N[C@H](CCC[C@@H](CO)N(C(C)C)S(=O)(=O)c1ccc(N)cc1)C1CC1)C(c1ccccc1)c1ccccc1 | T lymphoid cells | microscopy | >10 µM
C[C@@]1(O)[C@H](O)[C@@H](CO)O[C@H]1n1cnc2c(N)ncnc21 | HBIII27 |  | 33 µM
CCO/N=C/c1ccc(OCCCC2CCN(c3ccc(Cl)nn3)CC2)cc1 | MRC-5 | visual reading | >1 µg/mL
Cc1cc(C)n2nc(S(=O)(=O)Nc3c(Cl)ccc(C)c3Cl)nc2n1 | K562 (CRL-1573) | WST | >128 µg/mL
CC(=O)N1c2ccccc2NC2=C(C(=O)CC(C)(C)C2)C1c1ccc(OCc2ccccc2)cc1 | Huh7-CMV-Luc |  | >32 µM
CCOC(=O)CCCCCOc1cccc(CN(C(=O)c2ccc(-c3ccncc3)cc2)C(C)C)c1 | HepG2 |  | >20 µM
CCCCN1CCN(C(=S)Nc2cccc(OCc3ccccc3)c2)C1=S | Ava5-EG(delta4AB)SEAP | MTS | >1 µM
O=c1[nH]c(=O)n([C@@H]2O[C@H](CO)[C@@H](O)[C@@H]2O)cc1/C=C/Br | RF | cell count | 670 µM
CC(C)N(Cc1cccc(OCCCCCC(=O)OC(=O)O)c1)C(=O)c1ccc(-c2cccc(NC=O)c2)cc1 | HEK 293 |  | >20 µM
COc1ccc(C[C@H](N)C(=O)N[C@H]2[C@@H](O)[C@H](n3cnc4c(N(C)C)ncnc43)O[C@@H]2CO)cc1 | HEPG2 (HB-8065) | WST | 0.32 µg/mL
CC/C(=N\OC)c1ccc(OCCC2CCN(c3ccc(Cl)nn3)CC2)cc1 | MRC-5 | visual reading | >1 µg/mL
NC(=S)Nc1cccc(OCCCCCOc2cccc3[nH]ccc23)c1 | Ava5-EG(delta4AB)SEAP | MTS | >1 µM
CCC1(Cc2ccccc2)OS(=O)(=O)C=C1OC(=O)c1ccccc1 | HEL fibroblasts |  | >200 µM
N#Cc1ccccc1OCCCCCOc1cccc(NC(N)=S)c1 | Ava5-EG(delta4AB)SEAP | MTS | >1 µM
COC(=O)N[C@@H](Cc1ccccc1Cl)C(=O)N[C@H](CCC[C@@H](CO)N(CCC(C)C)S(=O)(=O)c1ccc(CO)cc1)C(C)C | T lymphoid cells | microscopy | >10 µM

Repeating the first 4 entries:

| SMILES | cells | method | result |
|---|---|---|---|
| CCc1cccc(C)c1NS(=O)(=O)c1nc2nc(C)cc(C3CC3)n2n1 | K562 (CRL-1573) | WST | >128 µg/mL |
| COC(=O)N[C@H](C(=O)N[C@@H](C)CCC[C@@H](CO)N(C)S(=O)(=O)c1ccc(N)cc1)C(c1ccccc1)c1ccccc1 | T lymphoid cells | microscopy | >10 µM |
| Nc1nc(=O)n([C@@H]2O[C@H](CO)[C@@H](O)[C@@H]2F)cc1I | NIH 3T3 | cell count | 30 µM |
| CN[C@H](C(=O)N[C@H](CCC[C@@H](CO)N(CCC(C)C)S(=O)(=O)c1ccc(CO)cc1)C1CC1)C(c1ccccc1)c1ccccc1 | T lymphoid cells | microscopy | >10 µM |